Laboratory results published in patent US20070281947A1, “Diarylmethylpiperazines As Prophylactic Or Therapeutic Agents For Viral Myocarditis” (priority 2002, published 2007).

Test system: EMC virus
Assay: Effect on histopathological changes in heart muscle in a cardiac insufficiency model induced by EMC viral myocarditis in mice
Format: in vivo
Conditions: DBA/2 mice, 5 days
Experimental: A comparative study was conducted on the effect of cetirizine on histopathological changes in heart muscle in a cardiac insufficiency model induced by EMC viral myocarditis in mice.
28-day-old, male DBA/2 mice were divided into three groups, and EMC virus was inoculated intraperitoneally to all groups at 1 pfu/mouse (day 0) in the same manner as Test Example 1. […]
After five days, the hearts of the animals were removed, stained with hematoxylin-eosin stain after fixing with formalin, and scored for the two parameters of heart muscle cellular necrosis and inflammatory cellular invasion in the manner described below (documents such as Circulation 1999; 100; 1823-1829 can be referred to for further details regarding this formalin fixation, hematoxylin-eosin staining and scoring). The scores for heart muscle cellular necrosis and inflammatory cellular invasion were evaluated independently by two observers and then averaged. […]
Data consisting of heart weight, body weight, heart weight/body weight ratio, heart muscle cellular necrosis and inflammatory cellular invasion measured in accordance with that described above is summarized in Table 1 below. […]

For `O=C(O)COCCN1CCN(C(c2ccccc2)c2ccc(Cl)cc2)CC1` (racemic) [Cetirizine, (±)-[2-[4-[(4-chlorophenyl)phenylmethyl]-1-piperazinyl]ethoxy]acetic acid], the “Body weight (g) (day 5)” value (1 mg/kg/day oral, n = 10, mean ± SD) was 13.0 ± 2.6 g and the “Body weight (g) (day 5)” value (10 mg/kg/day oral, n = 7, mean ± SD) was 11.4 ± 2.1 g.
